Pooled drug test results. Numbers come from NIAID ChemDB, via PubChem.

All rows: whole-cell or culture tests; organism: Mycobacterium kansasii

Rows are shuffled and stem from different studies. A number after MIC or MFC names an inhibition level or a share of isolates. Blank or dashed fields: not listed here.

| structure | read by | setting | endpoint | strain or isolate | value |
|---|---|---|---|---|---|
| CC(C)(C)c1cnc(C(=O)/C=C/c2ccccc2Br)cn1 | absorbance | - | MIC | Hauduroy | 12.5 µg/mL |
| Cc1cc(NS(=O)(=O)c2ccc(NC(=O)Nc3ccc(S(=O)(=O)Nc4cc(C)on4)cc3)cc2)no1 | broth dilution / absorbance | 14 d | MIC100 | 235/80 | 2 µM |
| CC[C@@H](CO)NCCN[C@@H](CC)CO | broth dilution | - | MIC | ATCC 35775 | 0.5 µg/mL |
| O=C(Nc1ccc(C(F)(F)F)cc1)c1cc(Cl)ccc1OP(=O)(Oc1ccccc1)Oc1ccccc1 | - | 7 d | MIC | My 6509/96 | 4 µM |
| CC(C)(C)c1cnc(C(=O)/C=C/c2ccc(Cl)cc2)cn1 | absorbance | - | MIC | Hauduroy | >50 µg/mL |
| O=C(N[C@H]([C@@H](O)CNCc1cccc(I)c1)C(F)(F)c1ccccc1)OCc1ccccc1 | broth dilution | - | MIC | P | 32 µg/mL |
| CC(C)c1cnc(C(=O)/C=C/c2ccc(Br)cc2)cn1 | absorbance | - | MIC | Hauduroy | 6.25 µg/mL |
| C=C1C(=O)N[C@@H](C)C(=O)N[C@H](CC(C)C)C(=O)N[C@H](C(=O)O)[C@H](C)C(=O)N[C@H](CCCN=C(N)N)C(=O)N[C@@H](/C=C/C(C)=C/[C@H](C)[C@H](Cc2ccccc2)OC)[C@@H](C)C(=O)N[C@@H](C(=O)O)CCC(=O)N1C | resazurin | - | MIC | - | 2.15 µM |
| CNC(=O)Nc1ccc(S(=O)(=O)Nc2cc(C)on2)cc1 | broth dilution / absorbance | 7 d | MIC100 | 6509/96 clinical isolate | 8 µM |
| O=C(N[C@@H]([C@@H](O)CNCc1cccc(I)c1)C(F)(F)c1ccccc1)OCc1ccccc1 | broth dilution | - | MIC | P | 32 µg/mL |
| CCNC(=O)Nc1ccc(S(=O)(=O)Nc2cc(C)on2)cc1 | broth dilution / absorbance | 14 d | MIC100 | 235/80 | 250 µM |
| O=C(/C=C/c1ccccc1Cl)c1cnccn1 | absorbance | - | MIC | Hauduroy | 25 µg/mL |
| CC[C@H]1OC(=O)[C@H](C)[C@@H](O[C@H]2C[C@@](C)(OC)[C@@H](O)[C@H](C)O2)[C@H](C)[C@@H](O[C@@H]2O[C@H](C)C[C@H](N(C)C)[C@H]2O)[C@](C)(OC)C[C@@H](C)C(=O)[C@H](C)[C@@H](O)[C@]1(C)O | - | - | MIC90 | 104 clinical isolates | 0.125 µg/mL |
| O=C(/C=C/c1ccc(Br)cc1)c1cnccn1 | absorbance | - | MIC | Hauduroy | 12.5 µg/mL |
| O=C(N[C@@H]([C@H](O)CNCc1cccc(I)c1)C(F)(F)c1ccccc1)OCc1ccccc1 | broth dilution | - | MIC | ATCC 35775 | 32 µg/mL |
| O=C(Nc1ccccc1)c1ccccc1OP(=O)(Oc1ccccc1)c1ccccc1 | - | 21 d | MIC | My 235/80 | 500 µM |
| O=C(N/N=C/N1CCN(c2cc3c(cc2F)c(=O)c(C(=O)O)cn3C2CC2)CC1)c1ccc(C(F)(F)F)cc1 | - | 14 d | MIC | 235/80 | 1 µM |
| O=C(Nc1ccc(Br)cc1)c1cc(Cl)ccc1OP(=O)(OCc1ccccc1)OCc1ccccc1 | - | 7 d | MIC | My 6509/96 | 32 µM |
| O=C(/C=C/c1ccccc1Br)c1cnccn1 | absorbance | - | MIC | Hauduroy | 12.5 µg/mL |
| O=C(Nc1ccc(Br)cc1)c1cc(Cl)ccc1OP(=O)(Oc1ccccc1)Oc1ccccc1 | - | 21 d | MIC | My 235/80 | 16 µM |
| CC(C)c1cnc(C(=O)/C=C/c2ccccc2Br)cn1 | absorbance | - | MIC | Hauduroy | 12.5 µg/mL |

For reference, 2 entries again:

structure,read by,setting,endpoint,strain or isolate,value
Cc1cc(NS(=O)(=O)c2ccc(NC(=O)Nc3ccc(S(=O)(=O)Nc4cc(C)on4)cc3)cc2)no1,broth dilution / absorbance,14 d,MIC100,235/80,2 µM
CC(C)(C)c1cnc(C(=O)/C=C/c2ccccc2Br)cn1,absorbance,-,MIC,Hauduroy,12.5 µg/mL